Record: PubChem BioAssay AID624099 (ICCB-Longwood, 2012)

Aim: 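Human genes that papillomavirus E2 requires to repress the HPV18 LCR promoter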 (primary screen)
Cells: human C33A cervical carcinoma cells (HPV-negative) stably expressing BPV1 E2 and an HPV18 LCR luciferase reporter
Reagent: siRNA pool against human genes, 40 nM
Time to read-out: 72 h
Detection: 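HPV18 LCR reporter light per well, converted to plate-wise z-scores that exclude control wells, and averaged over triplicate plates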
Scale: mean z-score and z-score: higher = stronger reporter signal, weaker E2 silencing
Rule for the call: 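Mean z ≥ 2 together with z ≥ 2 in two or more of the three replicates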
This is a random part of about 21,000 reagents. Over the whole deposit, 497 (2.4%) are marked active. 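Higher z means weaker E2 silencing; only reporter increases were scored, and knock-downs that hurt cell survival may mask genuine repressor factors.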 Entries without a mark were called inactive.

PKD1L2
- mean z-score: -0.17
- z-score, replicate A: -0.25
- z-score, replicate B: -0.18
- z-score, replicate C: -0.09

CEP68
- mean z-score: 0.25
- z-score, replicate A: 0.2
- z-score, replicate B: 0.16
- z-score, replicate C: 0.38

FOXL2
- mean z-score: -0.73
- z-score, replicate A: -0.45
- z-score, replicate B: -1.07
- z-score, replicate C: -0.67

COG7
- mean z-score: 0.44
- z-score, replicate A: 0.41
- z-score, replicate B: 0.52
- z-score, replicate C: 0.4

FHIP2A
- mean z-score: 0.07
- z-score, replicate A: 0.7
- z-score, replicate B: 0
- z-score, replicate C: -0.48

PRKCD
- mean z-score: -1.39
- z-score, replicate A: -1.38
- z-score, replicate B: -1.18
- z-score, replicate C: -1.62

DDB2
- mean z-score: 0.94
- z-score, replicate A: 0.65
- z-score, replicate B: 0.98
- z-score, replicate C: 1.19

DRC10
- mean z-score: -1
- z-score, replicate A: -0.95
- z-score, replicate B: -0.88
- z-score, replicate C: -1.18

TBC1D13
- mean z-score: -1.12
- z-score, replicate A: -1.23
- z-score, replicate B: -1.1
- z-score, replicate C: -1.03

SSTR5-AS1
- mean z-score: -0.38
- z-score, replicate A: -0.23
- z-score, replicate B: -0.86
- z-score, replicate C: -0.07

BCAR1
- mean z-score: -1.57
- z-score, replicate A: -1.62
- z-score, replicate B: -1.75
- z-score, replicate C: -1.33

NECAB1
- mean z-score: -0.77
- z-score, replicate A: -1.11
- z-score, replicate B: -0.59
- z-score, replicate C: -0.63

LOC402095 (retired record)
- mean z-score: -0.6
- z-score, replicate A: -0.53
- z-score, replicate B: -1.03
- z-score, replicate C: -0.24

TPCN2
- mean z-score: -1.24
- z-score, replicate A: -1.4
- z-score, replicate B: -1.05
- z-score, replicate C: -1.27

DTX4
- mean z-score: -0.68
- z-score, replicate A: -0.47
- z-score, replicate B: -0.84
- z-score, replicate C: -0.72

ADRB2
- mean z-score: 1
- z-score, replicate A: 0.94
- z-score, replicate B: 0.8
- z-score, replicate C: 1.25

CLDND1
- mean z-score: -1.4
- z-score, replicate A: -1.39
- z-score, replicate B: -1.5
- z-score, replicate C: -1.32

GPRACR
- mean z-score: -0.35
- z-score, replicate A: -0.62
- z-score, replicate B: 0
- z-score, replicate C: -0.44

ADGRL2
- mean z-score: 1.71
- z-score, replicate A: 2.03
- z-score, replicate B: 1.56
- z-score, replicate C: 1.54

OR1I1
- mean z-score: 0.38
- z-score, replicate A: 0.18
- z-score, replicate B: 0.34
- z-score, replicate C: 0.6

PKD2L2
- mean z-score: 0.63
- z-score, replicate A: 0.55
- z-score, replicate B: 0.63
- z-score, replicate C: 0.71

2 of these entries in another layout.
SSTR5-AS1 | mean z-score: -0.38; z-score, replicate A: -0.23; z-score, replicate B: -0.86; z-score, replicate C: -0.07
BCAR1 | mean z-score: -1.57; z-score, replicate A: -1.62; z-score, replicate B: -1.75; z-score, replicate C: -1.33
